Measured values published in article PMC6429459, “The HslV Protease from Leishmania major and Its Activation by C-terminal HslU Peptides” (International Journal of Molecular Sciences, 2019).

Key:
[1] = Solubility in aqueous assay solutions (observation); details: aqueous assay conditions, peptide concentrations in the millimolar range; in words
[2] = Circular dichroism, α-helix content from θ at 222 nm; assay type: physicochemical; details: for Helicity%: 25 mM Tris-HCl pH 8.0, 20 °C, 100% helicity for θ = −36,000; for θmre at 222 nm: 25 mM Tris-HCl pH 8.0, around 200 μM peptide, 20 °C, 1 mm cuvette, 3 scans
Protocol: CD spectra (Figure S2) were recorded on a JASCO J-815 spectropolarimeter from 190 to 260 nm (data pitch of 0.1 nm, continuous scanning mode, 200 nm/min, 3 scans) at 20 °C, using a 1 mm path length cuvette. Baseline was corrected by subtracting the background from the sample spectrum.
Peptides were solubilised in 50 mM Tris-HCl, pH 8.0 buffer at an estimated concentration of 400 μM according to their apparent molecular mass (i.e. M + xTFA with x = number of basic groups). The solutions were then diluted twice (25 mM Tris and around 200 μM peptides final concentrations) with: […]

Which “Solubility of activating peptide” value [1] does the source give for “H-arg-O2Oc-Leu-Gln-Lys-Asn-Val-Asn-Leu-Ala-Lys-Tyr-Leu-Leu-OH [Compound 10]” here?
The value was “more soluble”.

And the Helicity% ([2]; 0% TFE)?
Its Helicity% is 3%.

And the “θmre at 222 nm” value ([2]; 0% TFE)?
Its value is −1186 deg.cm^2.dmol^−1.

And the Helicity% ([2]; 25% TFE)?
The Helicity% was 10%.

And the “θmre at 222 nm” value ([2]; 25% TFE)?
The value was −3727 deg.cm^2.dmol^−1.

What about the Helicity% ([2]; 50% TFE) of the same substance?
The Helicity% was 12%.

And the “θmre at 222 nm” value ([2]; 50% TFE)?
Its value is −4328 deg.cm^2.dmol^−1.

With “H-arg-O2Oc-Val-Asn-Leu-Ala-Lys-Tyr-Leu-Leu-OH [Compound 30]” as the substance, how does the Helicity% ([2]; 0% TFE) read?
Its Helicity% is 4%.

And the “θmre at 222 nm” value ([2]; 0% TFE)?
The value was −1377 deg.cm^2.dmol^−1.

What about the Helicity% ([2]; 25% TFE) of the same substance?
The Helicity% was 10%.

What about the “θmre at 222 nm” value ([2]; 25% TFE) of the same substance?
Its value is −3519 deg.cm^2.dmol^−1.

What about the Helicity% ([2]; 50% TFE) of the same substance?
Its Helicity% is 10%.

And the “θmre at 222 nm” value ([2]; 50% TFE)?
Its value is −3592 deg.cm^2.dmol^−1.
